Compound potency records, mixed from different reports. Data source: NIAID ChemDB in PubChem.

Common to all: whole-cell or culture tests; species: Mycobacterium tuberculosis

Rows are shuffled and stem from different studies.

compound,measure,read by,changes,strain,tested at,value
CCN(CC)CCCC(C)Nc1nc(-c2ccc(N(C)C)cc2)c(C#N)c(=O)[nH]1,MIC,-,-,H37Ra,-,>50 µg/mL
CC1COc2c(C3(N)CC3)c(F)cc3c(=O)c(C(=O)O)cn1c23,MIC90,-,-,25 strains,-,3.13 µg/mL
N#Cc1cc(SCc2ccc(Br)cc2)ccn1,MIC,-,-,CNCTC MY331/88,-,30.9 µM
Cc1nn(C(=O)c2ccncc2)c(C)c1N=Nc1ccc(S(=O)(=O)N=C(N)N)cc1,inhibition,BACTEC,-,H37Rv,12.5 µg/mL,1%
O=C(N/N=C/c1ccc(Cl)cc1)c1ccncc1,MIC,-,-,-,-,0.1 µg/mL
N#Cc1ccc2c(=O)c3ccccc3oc2c1,inhibition,-,-,H37Rv,2 µg/mL,inactive
CCCCCCCCO[C@H]1O[C@H](CO[C@H]2O[C@H](CN=[N+]=[N-])[C@@H](O[Si](C)(C)C(C)(C)C)[C@@H]2O[Si](C)(C)C(C)(C)C)[C@@H](O[Si](C)(C)C(C)(C)C)[C@@H]1O[Si](C)(C)C(C)(C)C,MIC,-,-,H37Ra,-,>12.8 µg/mL
N#Cc1cc(SCc2ccc(Cl)cc2)ccn1,MIC,-,-,CNCTC MY331/88,-,30.9 µM
CN[C@@H]1[C@@H](O)[C@@H](O[C@@H]2[C@@H](O)[C@H](O[C@H]3O[C@H](CN)CC[C@H]3N)[C@@H](N)C[C@H]2N)OC[C@]1(C)O,inhibition,-,-,H37Rv,4 µg/mL,inactive
N#Cc1c(C(=O)NN)cc(-c2cccc3ccccc23)[nH]c1=O,MIC bound,resazurin,-,H37Rv,-,>6.25 µg/mL
COc1ccccc1-c1cn2ccsc2n1,inhibition,-,-,H37Rv,6.25 µg/mL,23%
CO[C@H]1/C=C/O[C@@]2(C)Oc3c(C)c(O)c4c(O)c(c5c(c4c3C2=O)NC2(CCN(CC(C)C)CC2)N=5)=NC(=O)/C(C)=C\C=C\[C@H](C)[C@H](O)[C@@H](C)[C@@H](O)[C@@H](C)[C@H](OC(C)=O)[C@@H]1C,MBC,-,-,2356-5 (RIF-R),-,4 µg/mL
N#CC1C(=O)SC2c3ccccc3C(=O)c3ccccc3C12,MIC bound,BACTEC,-,H37Rv,-,>12.5 µg/mL
N#Cc1cc(SCc2ccccc2)ccn1,MIC,-,-,CNCTC MY331/88,-,126 µM
COC(=O)[C@@H]1[C@H]2C[C@@H]3c4[nH]c5ccccc5c4CCN3C[C@@H]2CC[C@@H]1O,MIC,BACTEC,-,H37Rv,-,≥12.8 µg/mL
Cc1ccc(-c2nc(NC3CCCCCC3)[nH]c(=O)c2C#N)cc1,MIC,-,-,H37Ra,-,25–50 µg/mL
COc1nc2ccc(Br)cc2cc1[C@@H](c1ccccc1)[C@@](O)(CCN(C)C)c1cccc2ccccc12,MIC80,broth dilution,Rifampicin-resistant,19000,-,<2 µM
NC(N)=NCCC[C@H]1NC(=O)[C@@H](Cc2ccc(O)cc2)NC1=O,inhibition,BACTEC,-,H37Rv,12.5 µg/mL,12%
O=C(NN=C1CCCCC1)c1ccncc1,MIC,-,-,-,-,0.01–0.1 µg/mL
CO[C@H]1/C=C/O[C@@]2(C)Oc3c(C)c(O)c4c(O)c(c(/C=N/N5CCN(C)CC5)c(O)c4c3C2=O)NC(=O)/C(C)=C\C=C\[C@H](C)[C@H](O)[C@@H](C)[C@@H](O)[C@@H](C)[C@H](OC(C)=O)[C@@H]1C,MIC,resazurin,-,ATCC 25177,-,24 µg/mL
FC(F)(F)c1cccc(-c2cn3cc(Cl)sc3n2)c1,MIC,-,-,H37Rv,-,>6.25 µg/mL
CCCCCCCCO[C@H]1O[C@H](CO[C@H]2O[C@H](CN(CC3CCCCC3)CC3CCCCC3)[C@@H](O)[C@@H]2O)[C@@H](O)[C@@H]1O,MIC,-,-,H37Ra,-,8 µg/mL
C=CCNC(=S)NNC(=O)c1ccncc1,MIC bound,resazurin,-,H37Rv,-,<6.25 µg/mL
CCCCCCCCO[C@H]1O[C@H](CO[C@H]2O[C@H](CNS(=O)(=O)c3ccc(C)cc3)[C@@H](O)[C@@H]2O)[C@@H](O)[C@@H]1O,MIC,-,-,H37Ra,-,>12.8 µg/mL
O=C(O)c1cccc2c(=O)c3ccccc3oc12,inhibition,-,-,H37Rv,32 µg/mL,inactive
N#Cc1c(-c2ccc(F)cc2)nc(NCCO)[nH]c1=O,MIC,-,-,H37Ra,-,>50 µg/mL
CCCCCCCCO[C@H]1O[C@H](CO[C@H]2O[C@H](CNC(=O)C(C)(C)C)[C@@H](O[Si](C)(C)C(C)(C)C)[C@@H]2O[Si](C)(C)C(C)(C)C)[C@@H](O[Si](C)(C)C(C)(C)C)[C@@H]1O[Si](C)(C)C(C)(C)C,MIC,-,-,H37Ra,-,>12.8 µg/mL
N#Cc1c(-c2cccnc2)nc(Nc2ccc(F)cc2)[nH]c1=O,MIC,-,-,H37Ra,-,>50 µg/mL
Cc1ccc(-c2cn3cc(Cl)sc3n2)cc1,inhibition,-,-,H37Rv,6.25 µg/mL,13%
NNC(=O)c1ccncc1,MIC,agar,-,H37Rv,-,0.217 µM
O=C(N/N=C/c1ccccc1[N+](=O)[O-])c1cccnc1,MIC,-,-,-,-,10 µg/mL
CN1[C@@H](CC(=O)c2ccccc2)CCC[C@H]1C[C@H](O)c1ccccc1,MIC bound,BACTEC,-,H37Rv,-,>128 µg/mL
C=C/C(C)=C/C[C@H]1C(=C)CC[C@H]2[C@](C)(CO)C[C@H](O)C[C@]12C,MIC,-,-,H37Rv (ATCC 27294),-,>650 µM
CCOC(=O)N(c1ccccc1)c1cc(=O)n2ccccc2n1,inhibition,resazurin,-,H37Rv,6.25 µg/mL,-11%
CCCCCCCCO[C@H]1O[C@H](CO[C@H]2O[C@H](CNC(=O)C(C)(C)C)[C@@H](O)[C@@H]2O)[C@@H](O)[C@@H]1O,MIC,-,-,H37Ra,-,>12.8 µg/mL
Cc1cccc(CSc2ccnc(C(N)=S)c2)c1,MIC,-,-,CNCTC MY331/88,-,7.94 µM
CO[C@H]1/C=C/O[C@@]2(C)Oc3c(C)c(O)c4c(O)c(c5c(c4c3C2=O)NC2(CCN(CC(C)C)CC2)N=5)=NC(=O)/C(C)=C\C=C\[C@H](C)[C@H](O)[C@@H](C)[C@@H](O)[C@@H](C)[C@H](OC(C)=O)[C@@H]1C,MIC50,-,-,22 strains,-,0.025 µg/mL
COc1ncccc1Nc1cc2nc3ccccc3n(-c3ccc(OC(F)(F)F)cc3)c-2cc1=NC1CCC(OC)CC1,MIC90,fluorescence,-,H37Rv,-,0.063 µg/mL
CC1(C)OCC(C2OC3OC(C)(C)OC3C2NC(=O)OCc2ccccc2)O1,inhibition,BACTEC,-,H37Rv,12.5 µg/mL,-2%
CC1COc2c(N3CCN(C)CC3)c(F)cc3c(=O)c(C(=O)O)cn1c23,MIC90,-,-,79 strains (drug-susceptible),-,0.35 µg/mL
Nc1ccc(-c2cn3cc(Cl)sc3n2)cc1,MIC,-,-,H37Rv,-,>6.25 µg/mL
CN[C@@H]1[C@H](O[C@H]2[C@H](O[C@H]3[C@H](O)[C@@H](O)[C@H](N=C(N)N)[C@@H](O)[C@@H]3N=C(N)N)O[C@@H](C)[C@]2(O)C=O)O[C@@H](CO)[C@H](O)[C@H]1O,MIC,-,-,H37RV (SM-R),-,35 µg/mL
N#Cc1ccc(Nc2nc(Oc3ccnc4ccccc34)nc(N3CCN(c4ccccc4F)CC3)n2)cc1C(F)(F)F,MIC,agar,-,H37Rv,-,12.5 µg/mL
CC1OC2=C(C(=O)c3ccccc3C2=O)C(O)C1O,MIC bound,BACTEC,-,H37Rv,-,>12.5 µg/mL
CCCNc1nc(-c2ccc(N(C)C)cc2)c(C#N)c(=O)[nH]1,MIC,-,-,H37Ra,-,>50 µg/mL
O=[N+]([O-])c1ccc(/C=C/c2cc(N(CCO)CCO)c3ccccc3n2)cc1,MIC bound,resazurin,-,H37Rv,-,>6.25 µg/mL
COc1ccccc1-c1cn2cc(Cl)sc2n1,MIC,-,-,H37Rv,-,>6.25 µg/mL
Nc1c(Cl)c(Cl)nc(C(=O)[O-])c1Cl.[Na+],MIC bound,BACTEC,-,H37Rv,-,>12.5 µg/mL
CCCCNc1nc(-c2ccc(C)cc2)c(C#N)c(=O)[nH]1,MIC,-,-,H37Ra,-,>50 µg/mL
CC(=O)Nc1oc(C)nc1C#N,inhibition,BACTEC,-,H37Rv,12.5 µg/mL,0%
O=C1/C(=C/c2ccccc2[N+](=O)[O-])SC(=S)N1CCCNc1ccnc2cc(Cl)ccc12,MIC,agar,-,H37Rv,-,6.25 µM
COC(=O)c1ccc2oc3c(C(=O)OC)cccc3c(=O)c2c1,inhibition,-,-,H37Rv,32 µg/mL,inactive
Sc1cc2c(c3ccccc13)Nc1ccccc1S2,MIC bound,BACTEC,-,H37Rv,-,>12.5 µg/mL
C/C(CCC(=O)O)=N\NC(=O)c1cccnc1,MIC,-,-,-,-,100–1000 µg/mL
NC(=O)c1ccc2oc3ccccc3c(=O)c2c1,inhibition,-,-,H37Rv,16 µg/mL,inactive
N=C(N)c1ccc(N=Nc2c(O)ccc3cc4c(N=Nc5ccc(C(=N)N)cc5)c(O)ccc4cc23)cc1,MIC bound,resazurin,-,H37Rv,-,>6.25 µg/mL
COC(=O)c1cccc2c(=O)c3ccccc3oc12,inhibition,-,-,H37Rv,8 µg/mL,inactive
CCCCCCCCNc1nc(-c2ccc(N(C)C)cc2)c(C#N)c(=O)[nH]1,MIC,-,-,H37Ra,-,>50 µg/mL
Cc1ncc2c(n1)-c1ccccc1OC2O,MIC bound,BACTEC,-,H37Rv,-,>12.5 µg/mL
NNC(=O)c1ccncc1,MIC80,broth dilution,Bedaquiline-resistant I66M,-,-,0.2 µM
COc1c(N2CCNC(C)C2)c(F)cc2c(=O)c(C(=O)O)cn(C3CC3)c12,MIC,-,-,T912 isoniazid- and rifampicin-resistant,-,0.12 µg/mL
Oc1ccc(-c2cn3cc(Cl)sc3n2)cc1,MIC,-,-,H37Rv,-,>6.25 µg/mL
C=CCc1cc(/C=N/NC(=O)c2ccncc2)ccc1O,MIC,-,-,-,-,0.1 µg/mL
N#Cc1ccc(Nc2nc(Oc3ccnc4ccccc34)nc(N3CCN(C(c4ccccc4)c4ccc(Cl)cc4)CC3)n2)cc1C(F)(F)F,MIC,agar,-,H37Rv,-,50 µg/mL
CC1COc2c(N3CCN(C)CC3)c(F)cc3c(=O)c(C(=O)O)cn1c23,MIC80,broth dilution,Ethambutol-resistant,17003,-,0.3 µM
N#Cc1cc(SCc2cccc(Br)c2)ccn1,MIC,-,-,CNCTC MY331/88,-,61.66 µM
Cc1ccc(-c2cn3ccsc3n2)cc1,MIC,-,-,H37Rv,-,>6.25 µg/mL
CNC(=O)c1ccc[n+](CC(=O)NCc2ccccc2)c1.[Cl-],inhibition,BACTEC,-,H37Rv,12.5 µg/mL,4%
NC(=S)c1cc(SCc2ccccc2F)ccn1,MIC,-,-,CNCTC MY331/88,-,3.98 µM
CCN(CC)CCCC(C)Nc1nc(-c2ccc(C)cc2)c(C#N)c(=O)[nH]1,MIC,-,-,H37Ra,-,>50 µg/mL
Cc1c([N+](=O)[O-])cc2c(=O)c3ccccc3oc2c1C,inhibition,-,-,H37Rv,4 µg/mL,inactive
COc1ccc(OC)c(-c2cn3cc(Cl)sc3n2)c1,inhibition,-,-,H37Rv,6.25 µg/mL,0%
CSC(=S)N/N=C(\C)c1ccc(S(=O)(=O)N(C)c2ccccc2)cc1,MIC bound,resazurin,-,H37Rv,-,>6.25 µg/mL
NNC(=O)c1ccncc1,MIC,-,-,-,-,0.16 µg/mL
COc1ccc(-c2nc(NCc3ccccc3)[nH]c(=O)c2C#N)cc1,MIC,-,-,H37Ra,-,>50 µg/mL
c1ccc(-c2cn3ccsc3n2)cc1,inhibition,-,-,H37Rv,6.25 µg/mL,0%
CCCCCCCCCCCC1=c2o[nH]c2=C(c2ccccn2)C(=O)C1=O,inhibition,BACTEC,-,H37Rv,12.5 µg/mL,49%
CO[C@H]1/C=C/O[C@@]2(C)Oc3c(C)c(O)c4c(O)c(c5c(c4c3C2=O)NC2(CCN(CC(C)C)CC2)N=5)=NC(=O)/C(C)=C\C=C\[C@H](C)[C@H](O)[C@@H](C)[C@@H](O)[C@@H](C)[C@H](OC(C)=O)[C@@H]1C,MIC,-,-,H37RV (RIF-R),-,250 µg/mL
NC(=S)c1cc(SCc2cccc(Cl)c2)ccn1,MIC,-,-,CNCTC MY331/88,-,7.94 µM
NNC(=O)C1CCNCC1,MIC,-,-,-,-,>40 µg/mL
CC(=O)N1Cc2c(N)nc(N)nc2C1C,MIC bound,BACTEC,-,H37Rv,-,>12.5 µg/mL
NC(=S)c1cc(SCc2ccc(Br)cc2)ccn1,MIC,-,-,CNCTC MY331/88,-,30.9 µM

For reference, 7 entries again:

compound,measure,read by,changes,strain,tested at,value
CCOC(=O)N(c1ccccc1)c1cc(=O)n2ccccc2n1,inhibition,resazurin,-,H37Rv,6.25 µg/mL,-11%
N#Cc1c(-c2cccnc2)nc(Nc2ccc(F)cc2)[nH]c1=O,MIC,-,-,H37Ra,-,>50 µg/mL
CN1[C@@H](CC(=O)c2ccccc2)CCC[C@H]1C[C@H](O)c1ccccc1,MIC bound,BACTEC,-,H37Rv,-,>128 µg/mL
NNC(=O)C1CCNCC1,MIC,-,-,-,-,>40 µg/mL
CO[C@H]1/C=C/O[C@@]2(C)Oc3c(C)c(O)c4c(O)c(c5c(c4c3C2=O)NC2(CCN(CC(C)C)CC2)N=5)=NC(=O)/C(C)=C\C=C\[C@H](C)[C@H](O)[C@@H](C)[C@@H](O)[C@@H](C)[C@H](OC(C)=O)[C@@H]1C,MIC50,-,-,22 strains,-,0.025 µg/mL
COC(=O)c1ccc2oc3c(C(=O)OC)cccc3c(=O)c2c1,inhibition,-,-,H37Rv,32 µg/mL,inactive
NC(=S)c1cc(SCc2ccc(Br)cc2)ccn1,MIC,-,-,CNCTC MY331/88,-,30.9 µM

MIC bound comes from a single tested concentration. An empty or dashed field is not shown. Two numbers with a dash give a range or band. For "inactive" no cut-off is given. Inhibition is in % at the dose shown (toxicity tests: loss of growth or viability). A number after MIC or MFC names an inhibition level or a share of isolates.